## Genome-wide point mutation profile of HIV-1: RT

Protein: RT of HIV-1 NL4-3, numbered from its first residue.
Effects on overlapping genes or RNA elements are not listed.

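Random point mutant libraries of HIV-1 NL4-3, one for each of seven fragments, were passaged in CEM T lymphocytes. The RC index is the frequency of a change after passage round 2 divided by its frequency in the plasmid library.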

Values are the RC index; higher means better tolerated. The authors read about 0.1 or less as lethal, 0.1-0.2 as attenuated and 0.2 or more as tolerated. A change reads original residue, position, new residue. The authors read an index above 1 as above wild type (1.9% of all changes in the genome). Clones carried about five changes per kilobase, which can drag down the index of neutral changes. Base changes are numbered along pNL4-3.

mutation | base | RC
V8I | G2571A | 0.122
P9Q | C2575A | 0.167
K20E | A2607G | 0.0275
I31K | T2641A | 0.926
I31M | A2642G | 0.0564
L34I | T2649A | 0.0485
V35E | T2653A | 0.0414
T39I | C2665T | 0.137
E40D | A2669C | 0.0901
E40D | A2669T | 0.0282
M41V | A2670G | 0.0632
M41I | G2672T | 0.116
K46E | A2685G | 0.0520
S48P | T2691C | 0.0464
K49R | A2695G | 0.0736
P52L | C2704T | 0.0572
E53G | A2707G | 0.0697
K66R | A2746G | 0.0937
D67E | C2750G | 0.119
N81S | A2791G | 0.0430
R83G | A2796G | 0.164
W88C | G2813T | 0.160
Q102K | C2853A | 0.0964
L109P | T2875C | 0.0353
V111E | T2881A | 0.0238
V111A | T2881C | 0.0263
D113E | T2888A | 0.0586
A114E | C2890A | 0.0558
F116Y | T2896A | 0.0243
L120S | T2908C | 0.0564
D121N | G2910A | 0.465
K122R | A2914G | 0.0312
K122N | A2915T | 0.0561
F124S | T2920C | 0.0244
K126R | A2926G | 0.0361
T128S | A2931T | 0.0218
I132T | T2944C | 0.0664
I132M | A2945G | 0.0258
S134C | A2949T | 0.0140
N137S | A2959G | 0.0173
E138K | G2961A | 0.141
V148G | T2992G | 0.101
Q161H | G3032T | 0.100
E169D | G3056T | 0.0726
F171L | T3060C | 0.0736
N175D | A3072G | 0.0510
V179I | G3084A | 0.205
Y181F | A3091T | 0.0343
M184V | A3099G | 0.0848
M184I | G3101T | 0.135
D186G | A3106G | 0.0248
G190R | G3117A | 0.436
S191Y | C3121A | 0.139
H198R | A3142G | 0.0443
K201R | A3151G | 0.0752
E203D | G3158T | 0.0756
E204G | A3160G | 0.0415
R211K | G3181A | 0.193
W212S | G3184C | 0.0641
T216K | C3196A | 0.160
P217Q | C3199A | 0.181
D218V | A3202T | 0.0332
H221Y | C3210T | 0.0754
L228I | C3231A | 0.0620
M230L | A3237T | 0.0349
G231D | G3241A | 0.117
E233G | A3247G | 0.0997
P236L | C3256T | 0.129
Q242H | G3275T | 0.0151
P247L | C3289T | 0.197
K275I | A3373T | 0.0132
Q278K | C3381A | 0.101
V293L | G3426C | 0.0393
V293A | T3427C | 0.138
T296K | C3436A | 0.168
D324G | A3520G | 0.423
G333R | G3546A | 0.500
Q336L | A3556T | 0.0673
W337L | G3559T | 0.0930
Q340H | A3569T | 0.0713
Y342H | T3573C | 0.0451
E370A | A3658C | 0.0474
I375V | A3672G | 0.0304
V381E | T3691A | 0.0263
K388R | A3712G | 0.0334
L391I | T3720A | 0.0874
E399G | A3745G | 0.0384
Y405H | T3762C | 0.121
Q407E | C3768G | 0.0501
Q407L | A3769T | 0.0740
W414R | T3789A | 0.0551
V417I | G3798A | 0.184
V417L | G3798C | 0.107
T419A | A3804G | 0.0863
K424R | A3820G | 0.108
E430G | A3838G | 0.0998
I434K | T3850A | 0.0539
A437T | G3858A | 0.0786
D443Y | G3876T | 0.0652
E449G | A3895G | 0.0237
D471V | A3961T | 0.0317
T473I | C3967T | 0.106
N474Y | A3969T | 0.0295
N474S | A3970G | 0.0270
K476R | A3976G | 0.0731
T477A | A3978G | 0.0695
I482V | A3993G | 0.0371
I482S | T3994G | 0.0950
Q487R | A4009G | 0.216
D488E | T4013A | 0.0298
V493A | T4027C | 0.162
N494S | A4030G | 0.0496
L503S | T4057C | 0.0659
Q507E | C4068G | 0.102
Q507H | A4070C | 0.178
Q509H | A4076T | 0.0359
S513G | A4086G | 0.0570
S513R | T4088G | 0.0886
E514K | G4089A | 0.722
V518D | T4102A | 0.0628
S519I | G4105T | 0.0689
I522L | A4113T | 0.0390
I526L | A4125T | 0.0444
I542V | A4173G | 0.0405
K550R | A4198G | 0.0602

The first 14 entries again:

{"mutation": "V8I", "base": "G2571A", "RC": 0.122}
{"mutation": "P9Q", "base": "C2575A", "RC": 0.167}
{"mutation": "K20E", "base": "A2607G", "RC": 0.0275}
{"mutation": "I31K", "base": "T2641A", "RC": 0.926}
{"mutation": "I31M", "base": "A2642G", "RC": 0.0564}
{"mutation": "L34I", "base": "T2649A", "RC": 0.0485}
{"mutation": "V35E", "base": "T2653A", "RC": 0.0414}
{"mutation": "T39I", "base": "C2665T", "RC": 0.137}
{"mutation": "E40D", "base": "A2669C", "RC": 0.0901}
{"mutation": "E40D", "base": "A2669T", "RC": 0.0282}
{"mutation": "M41V", "base": "A2670G", "RC": 0.0632}
{"mutation": "M41I", "base": "G2672T", "RC": 0.116}
{"mutation": "K46E", "base": "A2685G", "RC": 0.0520}
{"mutation": "S48P", "base": "T2691C", "RC": 0.0464}

Reference: Al-Mawsawi et al. 2014, doi:10.1186/s12977-014-0124-6.